Measurements published in publication PMC5652740, “Inhibition of HIV-1 infection in humanized mice and metabolic stability of protein phosphatase-1-targeting small molecule 1E7-03” (Oncotarget, 2017).

Amino acid sequences for entries named in this document (tags omitted). Residues count along the entry.
UniProt P62136, 7-300: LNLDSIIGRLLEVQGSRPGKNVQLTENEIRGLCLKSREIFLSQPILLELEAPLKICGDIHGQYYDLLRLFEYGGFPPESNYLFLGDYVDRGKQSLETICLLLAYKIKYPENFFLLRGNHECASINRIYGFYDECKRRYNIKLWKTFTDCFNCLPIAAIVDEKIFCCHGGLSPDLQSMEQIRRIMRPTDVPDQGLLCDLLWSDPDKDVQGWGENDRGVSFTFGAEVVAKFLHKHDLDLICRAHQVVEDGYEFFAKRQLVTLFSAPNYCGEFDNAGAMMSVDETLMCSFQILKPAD

Target: T1, human PP1α (residues 7–300) (human, UniProt P62136 7-300)
T1 construct: also called protein phosphatase-1; recombinant PP1; source: E. coli BL21 (DE3), co-expressed with GroEL/GroES chaperones, purified (Ni-NTA IMAC)
Experiment: SPR; PP1 immobilised on a CM5 chip by amine coupling (about 3160 RU); Biacore T200, 25°C; running buffer 0.01 M HEPES pH 7.4, 0.15 M NaCl, 0.005% Surfactant P20, 1% DMSO, 2 mM MnCl2; 1:1 binding model
Settings: both partners purified

B1: pRb-Tat hybrid peptide (retinoblastoma protein-derived phosphopeptide linked to an RVxF-containing sequence derived from HIV-1 Tat) (peptide)
peptide: HIPRSPYKFPSSPLRKKCCFHCQVCFITK
modifications: phosphoserine at position 5 of the peptide, HIPR(pS)PYK (a single serine phosphorylated)
notes: retinoblastoma protein (pRb) part of the hybrid peptide; HIV-1 Tat part of the hybrid peptide with the RVxF-like motif QVCF; also called pRb-Tat peptide
- Kd: 160 nM
